Pooled drug test results. Numbers come from NIAID ChemDB, via PubChem.

Common to all: tests in culture; agent: HIV-1; endpoint: EC50

Two numbers with a dash give a range or band. An empty or dashed field is not shown. Conditions beyond the fields shown may differ between rows. ECn is the concentration giving n% inhibition of infection, replication or growth.

O=C(O)CCCC#CC#CCCCCCCCCCCCCCc1ccco1 ; strain or isolate: MC99 deltaTAT/REV ; cell line: 1A2 ; read by: syncytia / β-galactosidase ; value: 8.9 µg/mL
Cc1cn([C@H]2C[C@H](N=[N+]=[N-])[C@@H](CO)O2)c(=O)[nH]c1=O ; strain or isolate: SF162 ; cell line: Monocytes + Monocyte ; read by: p24 / ELISA ; value: 0.0011 µg/mL
COc1ccccc1CN[C@H]1C2CCN(CC2)[C@H]1C(c1ccccc1)c1ccccc1 ; strain or isolate: 89.6 R5X4 isolate ; cell line: Macrophage + Monocytes/macrophages ; read by: RT activity ; value: >0.1 µM
O=c1[nH]cnc2c1ncn2[C@H]1CC[C@@H](CO)O1 ; strain or isolate: NL4-3 ; cell line: CEM-GFP ; read by: flow cytometry ; value: 0.0365 µM
Nc1ncnc2c1ncn2[C@H]1CC[C@@H](CO)O1 ; strain or isolate: IIIB ; cell line: JM ; read by: syncytia ; value: 1.6 µM
COc1ccccc1-c1noc(=O)n1-c1cccc(C(F)(F)F)c1 ; strain or isolate: NLHXADA R5 recombinant wild type ; cell line: MDM ; read by: p24 ; value: <1 µM
O=c1[nH]cnc2c1ncn2[C@H]1CC[C@@H](CO)O1 ; strain or isolate: IIIB ; cell line: PBL ; read by: p24 ; value: 0.18 µM
Cc1cc(Br)cc(S(=O)(=O)c2cccc(N)c2C#N)c1 ; changes: RT-Y188C ; cell line: HeLa + HELA CD4+ ; read by: β-galactosidase ; value: 0.21 µM
Cc1cccc2c1OP(=O)(OC[C@@H]1[C@@H](O)CC[C@@H]1n1cc(C)c(=O)[nH]c1=O)OC2 ; cell line: CEM + CEM/0 ; value: 27.5 µM
Oc1ccc(/C=C/c2cc(O)cc(O)c2)cc1 ; strain or isolate: SF162 ; cell line: MDM ; read by: p24 ; value: ~10 µM
Cc1cc(/C=C/C#N)cc(C)c1Nc1ccnc(Nc2ccc(C#N)cc2)n1 ; strain or isolate: NL4-3 ; cell line: CEM-GFP ; read by: flow cytometry ; value: 0.001298 µM
CC(=O)c1cccc(C(=O)COCCCCCCCCOP(=O)(OC[C@H]2OC(O)[C@H](O)[C@@H](O)[C@@H]2O)OC[C@H]2O[C@@H](n3cc(C)c(=O)[nH]c3=O)C[C@@H]2N=[N+]=[N-])n1 ; strain or isolate: LAI ; cell line: CEM + CEM-4 ; read by: RT activity ; value: 2 µM
CC(C)C[C@H](NC(=O)[C@@H](O)[C@H](N)Cc1ccccc1)C(=O)O ; strain or isolate: IIIB ; cell line: HuT-78 + HUT 78 ; read by: p24 ; value: 15 µg/mL
COc1c2ccccc2c(OC)c2c(C)cc(=O)[nH]c12 ; strain or isolate: MC99 deltaTAT/REV ; cell line: 1A2 ; read by: syncytia / β-galactosidase ; value: 7.3 µg/mL
Cc1ccnc2c1NC(=O)c1cccnc1N2C1CC1 ; strain or isolate: NNRTI-resistant (RT K103N Y181C) ; changes: RT-K103N Y181C ; cell line: MAGI ; read by: β-galactosidase ; value: >8 µM
O=C(O[C@H]1CN2CC[C@H](O)[C@@H]2[C@@H](O)[C@@H]1O)c1ccccc1 ; strain or isolate: GB8 ; cell line: JM ; read by: syncytia ; value: 1 µg/mL
C/C(=C(/CCO)SSCC1CCCO1)N(C=O)Cc1cnc(C)nc1N ; strain or isolate: MN ; cell line: H9/HIV-1(MN) + H9 ; read by: p24 ; value: <50 µM
Cc1ccc(-c2ccc3c(c2)C=C(C(=O)Nc2ccc(C[N+](C)(C)C4CCOCC4)cc2)CCC3)cc1 ; strain or isolate: IIIB ; cell line: MAGI + MAGI-CCR5 ; read by: β-galactosidase ; value: >51 µM
CSc1ccc2c(c1)N=C(N1CCN(C)CC1)c1ccccc1N2 ; strain or isolate: IIIB ; cell line: CEM-T4 + CEM ; read by: cytopathic effect / MTT ; value: >28 µg/mL
Cc1cc(O)cc(S(=O)(=O)c2cccc(N)c2C#N)c1 ; changes: RT-L100I K103N ; cell line: HeLa + HELA CD4+ ; read by: β-galactosidase ; value: 5 µM
Clc1ccc2c(c1)N=C(N1CCNCC1)c1ccccc1N2 ; strain or isolate: IIIB ; cell line: CEM-T4 + CEM ; read by: cytopathic effect / MTT ; value: >11 µg/mL
CC(C)=CCN1Cc2cc(Cl)cc3[nH]c(=S)n(c23)C[C@@H]1C ; strain or isolate: McK ; cell line: CEM + CEM-SS ; read by: cytopathic effect / MTT ; value: 0.064 µM
Cc1ccc(C(=O)O[C@H]2[C@H](O)[C@H]3[C@@H](O)CCN3C[C@@H]2O)cc1 ; strain or isolate: GB8 ; cell line: JM ; read by: syncytia ; value: 3.4 µg/mL
CN1CCN(C2=c3cc(O)ccc3=Nc3ccc(Cl)cc3N2O)CC1 ; strain or isolate: IIIB ; cell line: CEM-T4 + CEM ; read by: cytopathic effect / MTT ; value: >100 µg/mL
Cc1cn([C@H]2C[C@H](N=[N+]=[N-])[C@@H](CO)O2)c(=O)[nH]c1=O ; strain or isolate: RF ; cell line: CEMx174 + CEM ; read by: p24 / RT activity ; value: 0.055 µM
COC[C@@H](c1ccc(C(F)(F)F)cc1)N1CCN(C2(C)CCN(C(=O)c3c(C)ncnc3C)CC2)C[C@@H]1C ; strain or isolate: NLAD8 ; cell line: PM1 ; read by: MTT ; value: 0.009 µM
O=C(O)c1cc(O)c(O)c(O)c1 ; strain or isolate: IIIB ; cell line: MOLT-3 ; read by: syncytia ; value: <10 µg/mL
CCOC(=O)c1[nH]c2ccc(Cl)cc2c1CC#N ; cell line: 293T ; read by: luciferase ; value: 19.8 µM
Nc1nc(NC2CC2)c2ncn([C@H]3C=C[C@@H](CO)C3)c2n1 ; strain or isolate: NL4-3 ; cell line: CEM-GFP ; read by: p24 / ELISA ; value: 0.0805 µM
Clc1nc(Cl)c2[nH]cnc2n1 ; changes: RT-P157S ; cell line: CD4+HELA + HeLa ; read by: p24 ; value: 0.9 µM
NC(=O)C(c1ccccc1)(c1ccccc1)[C@H]1CCCN(CCc2ccc3c(c2)CCO3)C1 ; strain or isolate: NL4-3 ; cell line: PM1 ; read by: p24 ; value: 0.93 µM
Cc1nnc(C(=O)NC(C)(C)c2nc(C(=O)NCc3ccc(F)cc3)c(O)c(=O)n2C)o1 ; strain or isolate: NL4-3 ; cell line: CEM-GFP ; read by: flow cytometry ; value: 0.0024 µM
Cc1cn([C@@H]2CC[C@H](O)[C@H]2CO)c(=O)[nH]c1=O ; cell line: CEM + CEM/0 ; value: 190 µM
Nc1ccn([C@H]2CC[C@@H](CO)O2)c(=O)n1 ; strain or isolate: 184V (RT-M184V) ; changes: RT-M184V ; cell line: HT4 + HT4 LacZ-1 ; value: 0.8 µM
Cc1ccnc2c1NC(=O)c1cccnc1N2C1CC1 ; strain or isolate: HXB2 ; changes: RT-L74V Y181C ; cell line: HT4 + HT4 LacZ-1 ; read by: plaque count ; value: 4 µM
CN1CCN(CC/C=C2/c3ccccc3Sc3ccc(S(=O)(=O)N(C)C)cc32)CC1 ; strain or isolate: IIIB ; cell line: CEM-T4 + CEM ; read by: cytopathic effect / MTT ; value: >8.4 µg/mL
Fc1cccc(F)c1C1SCc2nc3ccccc3n21 ; strain or isolate: RF ; cell line: CEMx174 + CEM ; read by: cytopathic effect / XTT ; value: 1.74 µM
N[C@@H](CCC(=O)N[C@@H](CS)C(=O)NCC(=O)O)C(=O)O ; strain or isolate: IIIB ; cell line: H9(HIV-1(IIIB)) + H9 ; read by: p24 ; value: >2500 µM
Cc1cn([C@@H]2C[C@H](CO)[C@H](O)C2)c(=O)[nH]c1=O ; cell line: CEM + CEM/0 ; value: >250 µM
O=C(O[C@H]1CN2CC[C@H](O)[C@@H]2[C@@H](O)[C@@H]1O)c1ccco1 ; strain or isolate: GB8 ; cell line: JM ; read by: syncytia ; value: 1 µg/mL
O=C(O)/C=C/c1cc(C(=O)O)c(O)c2nc(/C=C/c3ccc(O)c(O)c3)ccc12 ; cell line: HeLaP4 ; read by: β-galactosidase ; value: 35 µM
Cc1cn([C@H]2C[C@H](N=[N+]=[N-])[C@@H](CO)O2)c(=O)[nH]c1=O ; strain or isolate: IIIB ; cell line: CEM + CEM TK- ; read by: RT activity ; value: 0.1–0.2 µM
CN1CCN(C2=Nc3cc(Cl)ccc3Nc3ccc(O)cc32)CC1 ; strain or isolate: IIIB ; cell line: CEM-T4 + CEM ; read by: cytopathic effect / MTT ; value: >18 µg/mL
Nc1nc(=O)n([C@@H]2CC[C@H](CO)O2)cc1F ; strain or isolate: 184V (RT-M184V) ; changes: RT-M184V ; cell line: HT4 + HT4 LacZ-1 ; value: >200 µM
Cc1cn([C@H]2C[C@H](N=[N+]=[N-])[C@@H](COP(=O)(O)OCCCCCCCCN(C)CCN(C)C)O2)c(=O)[nH]c1=O ; strain or isolate: LAI ; cell line: CEM + CEM-4 ; read by: RT activity ; value: 0.2 µM
CCOCn1c(Cc2cc(C)cc(C)c2)c(CC)c(=O)[nH]c1=O ; strain or isolate: JR-FL ; cell line: Monocyte/macrophage + Monocytes/macrophages ; read by: cytopathic effect / MTT / p24 ; value: 0.00074 µM
Cc1cn([C@H]2C[C@H](N=[N+]=[N-])[C@@H](CO)O2)c(=O)[nH]c1=O ; strain or isolate: BaL ; cell line: MONO/MACRO + Monocytes/macrophages ; value: 0.056 µg/mL
Oc1ccc2c(c1)N=C(N1CCNCC1)c1ccccc1N2 ; strain or isolate: IIIB ; cell line: CEM-T4 + CEM ; read by: cytopathic effect / MTT ; value: 37 µg/mL
Cc1cc(Cl)cc(S(=O)(=O)c2cccc(N)c2C#N)c1 ; changes: RT-L100I K103N ; cell line: HeLa + HELA CD4+ ; read by: β-galactosidase ; value: 16 µM
O=C(O)/C=C/c1ccc[c]([Sb](=[O])([OH])[OH])c1 ; strain or isolate: 92US077 X4/R5 clinical isolate ; cell line: MAGI ; read by: β-galactosidase ; value: <20 µM
Cc1cn([C@H]2C[C@H](N=[N+]=[N-])[C@@H](CO)O2)c(=O)[nH]c1=O ; strain or isolate: MC99 deltaTAT/REV ; cell line: 1A2 ; read by: syncytia / β-galactosidase ; value: 0.00135 µg/mL

For reference, 5 entries again:

SMILES	strain or isolate	changes	cell line	read by	value
Cc1cn([C@H]2C[C@H](N=[N+]=[N-])[C@@H](CO)O2)c(=O)[nH]c1=O	BaL		MONO/MACRO + Monocytes/macrophages		0.056 µg/mL
CSc1ccc2c(c1)N=C(N1CCN(C)CC1)c1ccccc1N2	IIIB		CEM-T4 + CEM	cytopathic effect / MTT	>28 µg/mL
Nc1ccn([C@H]2CC[C@@H](CO)O2)c(=O)n1	184V (RT-M184V)	RT-M184V	HT4 + HT4 LacZ-1		0.8 µM
Cc1cn([C@H]2C[C@H](N=[N+]=[N-])[C@@H](CO)O2)c(=O)[nH]c1=O	IIIB		CEM + CEM TK-	RT activity	0.1–0.2 µM
CN1CCN(CC/C=C2/c3ccccc3Sc3ccc(S(=O)(=O)N(C)C)cc32)CC1	IIIB		CEM-T4 + CEM	cytopathic effect / MTT	>8.4 µg/mL